The list shows a part of the results, in another mix than the full data. Calls of active or inactive are those of the source. Cut-off read from the data, not from the text of the source: active = z-score below about -2 (passing the limit was not always enough); inactive = the rest.
Assay: PubChem AID 504770
Conditions: E. coli YBA685 rctB-dependent plasmid, OD600 growth, 3 h; active compounds read low
With `CC(C)(C)OC(=O)N1CCC(Nc2ccc(OC(F)(F)F)cc2)CC1` the z-score was inactive: 0.65. In the case of `Cn1nc(C(=O)NCC2(N3CCCCC3)CCCCC2)c2ccccc2c1=O`, the z-score is reported as inactive: 0.55. For `FC(F)(F)Oc1ccc(NC2CCNCC2)cc1`, the z-score was inactive: -0.35. For `Cc1ccc(C(=O)NCC2(N(C)C)CCCCC2)o1`, the z-score was inactive: 0.2. In the case of `c1ccc(CN2CCC(Nc3ccc4c(c3)OCO4)CC2)cc1`, the z-score is reported as inactive: -0.15. For `NC(=O)C1(Nc2ccc(F)cc2)CCNCC1`, the z-score was inactive: -0.9. For `COc1ccc(C(=O)NCC2(N3CCCCC3)CCCCC2)cc1`, the z-score was inactive: -0.5. In the case of `Cc1ccccc1NC1CC(C)(C)NC(C)(C)C1`, the z-score is reported as inactive: 0.3. With `CCCN1CCC(Nc2ccc(OC)c(OC)c2)CC1` the z-score was inactive: -0.9. For `CC1CN(CCc2ccccc2)CCC1=O` (stereo unspecified), the z-score was inactive: -0.8. In the case of `N#CC1(Nc2ccccc2)CCN(Cc2ccccc2)CC1`, the z-score is reported as inactive: -0.4. For `Cc1cnc(C(=O)NCC2(N3CCCCC3)CCCCC2)cn1`, the z-score was inactive: 0.15. In the case of `CCOC(=O)N1CCC(Nc2ccc(F)cc2)CC1`, the z-score is reported as inactive: -0.25. For `O=C1CCN(Cc2ccccc2)CC1`, the z-score was inactive: 3.05. In the case of `O=C(NCC1(N2CCOCC2)CCCCC1)c1ccc2nc[nH]c2c1`, the z-score is reported as inactive: 0.1. In the case of `CCOC(=O)N1CCC(Nc2cccc(C)c2)CC1`, the z-score is reported as inactive: -0.45. For `CC1CN(Cc2ccccc2)CCC1=O` (stereo unspecified), the z-score was inactive: 0.95. In the case of `CC1CN(CCc2ccccc2)C(C)CC1=O` (stereo unspecified), the z-score is reported as inactive: -0.7. In the case of `CN(C)c1ccc(C(=O)NCC2(N3CCCCC3)CCCCC2)cc1`, the z-score is reported as inactive: -0.25. For `CC1CN(C)C(C)CC1Nc1ccccc1` (stereo unspecified), the z-score was inactive: -1.35. For `CCN1CCC(Nc2ccc(F)cc2)CC1`, the z-score was inactive: 0.75. In the case of `CCOc1ncccc1C(=O)NCC1(N(C)C)CCCCC1`, the z-score is reported as inactive: -0.45. In the case of `CC(C)(C)OC(=O)N1CCC(Nc2ccccc2)CC1`, the z-score is reported as inactive: -0.55. With `CCOc1ncccc1C(=O)NCC1(N2CCCCC2)CCCCC1` the z-score was inactive: 0.8. With `O=C(NCC1(N2CCCCC2)CCCCC1)c1n[nH]c2ccccc12` the z-score was inactive: 0.25. In the case of `NC(=O)C1(Nc2ccccc2)CCN(Cc2ccccc2)CC1`, the z-score is reported as inactive: -0.25. In the case of `CN1CCC(Nc2ccc(F)cc2)CC1`, the z-score is reported as inactive: 0.4. With `O=C1CCN(CCc2ccccc2)CC1` the z-score was inactive: -1.35. In the case of `O=C(NCC1(N2CCOCC2)CCCCC1)c1cc2ccccc2cc1O`, the z-score is reported as inactive: -0.65. In the case of `Cc1c(C(=O)NCC2(N3CCOCC3)CCCCC2)oc2c(Cl)cccc12`, the z-score is reported as inactive: 0. For `CCCN1CCC(Nc2cc(OC)cc(OC)c2)CC1`, the z-score was inactive: 0.
